Compound potency records, mixed from different reports. Data source: NIAID ChemDB in PubChem.

All rows: tests in culture; species: Cryptococcus neoformans; measure: MIC

a–b is a range or a potency band. Neighbouring rows are from separate reports. Blank or dashed fields: not listed here.

| SMILES | strain | read by | value |
|---|---|---|---|
| Cc1cc(NC(=O)c2cccc(NC(=O)COc3ccc(Cl)cc3Cl)c2)no1 | ATCC90112 | - | >100 µg/mL |
| C[C@H](n1nnc(CCN2CCN(c3ccc([N+](=O)[O-])cc3)CC2)n1)[C@](O)(Cn1cncn1)c1ccc(F)cc1F | LA314 | - | 4 µg/mL |
| O=C(c1ccc(Cl)cc1)N1CCC(n2cc(-c3nc(-c4ccccc4)n[nH]3)nn2)CC1 | - | agar | 100 µg/mL |
| Cc1cc(NC(=O)c2ccccc2NC(=O)COc2cccc(Cl)c2Cl)no1 | ATCC90112 | - | >100 µg/mL |
| C[C@H](n1nnc(CCN2CCN(C(c3ccccc3)c3ccccc3)CC2)n1)[C@](O)(Cn1cncn1)c1ccc(F)cc1F | LA314 | - | 8 µg/mL |
| CC(N(C)C)C(O)(Cn1cncn1)c1ccc(F)cc1F | KC-201 | - | 6.25 µg/mL |
| O=C1C[C@@H](c2ccc(F)c(Br)c2)Cc2cc(O)cc(O)c21 | Clinical isolate H99 | - | 71 µg/mL |
| CC(N1CCN(c2ccc(-n3cnnn3)cc2)C1=O)[C@@](O)(Cn1cncn1)c1ccc(F)cc1F | TIMM1740 | - | >16 µg/mL |
| CCCCc1ccccc1N1CCN(CCc2nnnn2[C@@H](C)[C@](O)(Cn2cncn2)c2ccc(F)cc2F)CC1 | LA314 | - | 0.5 µg/mL |
| COc1ccc(/C=C2\CSc3ccc(Cl)cc3C2=O)cc1 | Farwania | - | 6 µg/mL |
| CC(=O)c1cn([C@@H]2O[C@H]([C@H](NC(=O)[C@@H](N)[C@H](C)[C@H](O)c3ccc(O)cn3)C(=O)O)[C@@H](O)[C@H]2O)c(=O)[nH]1 | YC203 | broth dilution | >50 µg/mL |
| c1ccc(-c2n[nH]c(-c3cn(C4CCNCC4)nn3)n2)cc1 | - | agar | 60 µg/mL |
| CC(N1CCCCC1)C(O)(Cn1cncn1)c1ccc(F)cc1F | KC-201 | - | 0.78 µg/mL |
| Cc1cc(NC(=O)c2cccc(NC(=O)COc3ccccc3)c2)no1 | ATCC90112 | - | >100 µg/mL |
| C[C@@H](c1nc(-c2ccc(C#N)cc2)cs1)[C@](O)(Cn1cncn1)c1ccc(F)cc1F | 3 | - | 0.025 µg/mL |
| COc1ccc2c(c1)C(=O)/C(=C/c1ccc3c(c1)OCO3)CO2 | 25 | - | 25 µg/mL |
| Cc1cc(NC(=O)c2ccccc2NC(=O)COc2ccccc2C)no1 | ATCC90112 | - | >100 µg/mL |
| C[C@H](n1nnnc1CCN1CCN(c2cccc(C(F)(F)F)c2)CC1)[C@](O)(Cn1cncn1)c1ccc(F)cc1F | LA314 | - | 0.25 µg/mL |
| Cc1cc(NC(=O)c2ccccc2NC(=O)COc2ccc(Cl)cc2)no1 | ATCC90112 | - | >100 µg/mL |
| CC1=CC[C@@H]2C[C@H]1C2(C)C | - | agar diffusion / agar | >20000 µg/mL |
| COc1ccc(/C=C2\CSc3ccccc3C2=O)cc1OC | 93/V | - | 100 µg/mL |
| CCC(C)CC(C)CCCCCCCCC(=O)N[C@H]1C[C@@H](O)[C@H](NCCN)NC(=O)[C@@H]2[C@@H](O)CCN2C(=O)[C@H]([C@H](O)CCN)NC(=O)[C@H]([C@H](O)[C@@H](O)c2ccc(O)cc2)NC(=O)[C@@H]2C[C@@H](O)CN2C(=O)[C@H]([C@@H](C)O)NC1=O | 19 isolates | - | 0.5 µg/mL |
| C[C@H](n1nnc(CCN2CCN(Cc3ccccc3)CC2)n1)[C@](O)(Cn1cncn1)c1ccc(F)cc1F | LA314 | - | >16 µg/mL |
| COCCOCCOCCOCCOCCOCCOCCOCCOCCOCCOCCOCCOCCOCCOCCNC(=O)[C@H]1[C@@H]2C[C@@H](O[C@@H]3O[C@H](C)[C@@H](O)[C@H](N)[C@@H]3O)/C=C/C=C/C=C/C=C/C=C/C=C/C=C/[C@H](C)[C@@H](O)[C@H](C)[C@H](C)OC(=O)C[C@H](O)C[C@H](O)[C@@H](O)CC[C@H](O)C[C@H](O)C[C@](O)(C[C@@H]1O)O2 | 3 strains | - | 0.8–6.4 µg/mL |
| CS(=O)(=O)N1CCC(n2cc(-c3nc(-c4ccccc4)n[nH]3)nn2)CC1 | - | agar | 100 µg/mL |
| COc1cc(O)c2c(c1)C(=O)c1c(cc3c(c1O)-c1c(cc(C)c(C(=O)NC(CO)C(=O)O)c1O)[C@H](OC1OC(C)C(N(C)C)C(OC4OCC(O)C(O)C4O)C1O)[C@H]3O)C2=O | IAM 4514 | - | 3.1 µg/mL |
| COc1cc([C@@H]2CC(=O)c3c(O)cc(O)cc3C2)ccc1F | Clinical isolate H99 | - | 608 µg/mL |
| Cc1ccc(OCC(=O)Nc2ccccc2C(=O)Nc2cc(C)on2)cc1 | ATCC90112 | - | >100 µg/mL |
| C[C@H](n1nnc(CCN2CCN(c3ccc(Cl)cc3)CC2)n1)[C@](O)(Cn1cncn1)c1ccc(F)cc1F | LA314 | - | 4 µg/mL |
| COc1ccc(/C=C2\COc3ccc(-c4ccccc4)cc3C2=O)cc1 | 93/V | - | 50 µg/mL |
| C[C@@H](N1CCN(c2ccc(-n3cnnn3)cc2)C1=O)[C@](O)(Cn1cncn1)c1ccc(F)cc1F | TIMM1740 | - | >16 µg/mL |
| CC1=CC[C@H]2C[C@@H]1C2(C)C | - | agar diffusion / agar | 117 µg/mL |
| O=C(c1ccccc1)N1CCC(n2cc(-c3nc(-c4ccccc4)n[nH]3)nn2)CC1 | - | agar | 180 µg/mL |

5 of the rows above, restated:

| SMILES | strain | read by | value |
|---|---|---|---|
| Cc1cc(NC(=O)c2ccccc2NC(=O)COc2ccccc2C)no1 | ATCC90112 | - | >100 µg/mL |
| Cc1cc(NC(=O)c2ccccc2NC(=O)COc2ccc(Cl)cc2)no1 | ATCC90112 | - | >100 µg/mL |
| Cc1ccc(OCC(=O)Nc2ccccc2C(=O)Nc2cc(C)on2)cc1 | ATCC90112 | - | >100 µg/mL |
| C[C@H](n1nnnc1CCN1CCN(c2cccc(C(F)(F)F)c2)CC1)[C@](O)(Cn1cncn1)c1ccc(F)cc1F | LA314 | - | 0.25 µg/mL |
| O=C1C[C@@H](c2ccc(F)c(Br)c2)Cc2cc(O)cc(O)c21 | Clinical isolate H99 | - | 71 µg/mL |